{"sequences": {"note": "Chains of the proteins cited; added tags and fusions are not shown. Lines headed by an entry give the natural chain unless they say otherwise; changes in a name come on top. Residues count along the entry.", "UniProt P26599": "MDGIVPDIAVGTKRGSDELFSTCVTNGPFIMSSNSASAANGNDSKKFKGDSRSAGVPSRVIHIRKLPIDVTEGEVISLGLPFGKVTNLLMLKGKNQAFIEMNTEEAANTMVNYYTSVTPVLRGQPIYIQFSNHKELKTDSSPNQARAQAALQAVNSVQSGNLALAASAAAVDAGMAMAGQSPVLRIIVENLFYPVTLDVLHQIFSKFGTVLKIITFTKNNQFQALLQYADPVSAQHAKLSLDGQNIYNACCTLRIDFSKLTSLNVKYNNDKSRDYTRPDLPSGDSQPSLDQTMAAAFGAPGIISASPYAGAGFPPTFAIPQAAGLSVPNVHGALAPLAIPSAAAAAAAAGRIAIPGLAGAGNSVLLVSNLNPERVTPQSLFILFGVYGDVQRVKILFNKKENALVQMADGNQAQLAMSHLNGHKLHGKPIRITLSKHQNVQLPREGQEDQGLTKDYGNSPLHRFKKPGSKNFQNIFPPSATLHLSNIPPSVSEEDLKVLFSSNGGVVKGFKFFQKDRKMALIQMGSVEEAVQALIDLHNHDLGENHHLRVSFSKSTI", "UniProt P26368, 2-475": "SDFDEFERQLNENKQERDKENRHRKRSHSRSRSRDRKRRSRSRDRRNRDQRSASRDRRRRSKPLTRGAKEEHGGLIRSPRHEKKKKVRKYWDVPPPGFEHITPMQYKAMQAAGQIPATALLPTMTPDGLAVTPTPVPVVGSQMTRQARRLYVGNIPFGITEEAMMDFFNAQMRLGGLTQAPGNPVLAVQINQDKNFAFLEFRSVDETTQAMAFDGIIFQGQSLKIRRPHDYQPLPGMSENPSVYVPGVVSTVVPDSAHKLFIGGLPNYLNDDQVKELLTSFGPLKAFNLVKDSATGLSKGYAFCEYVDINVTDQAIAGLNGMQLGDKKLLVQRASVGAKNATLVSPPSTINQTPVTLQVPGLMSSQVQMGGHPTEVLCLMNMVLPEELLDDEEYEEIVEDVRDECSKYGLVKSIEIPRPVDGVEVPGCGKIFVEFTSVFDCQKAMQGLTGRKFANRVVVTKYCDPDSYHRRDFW"}, "source": "patent US20240263180", "key": {"[1]": {"target": "PTB (endogenous, RNA ChIP) (UniProt P26599)", "experiment": "binding assay", "conditions": "HEK 293T transfected, also infected MRC-5, protein in cells"}, "[2]": {"target": "U2AF65 (endogenous, RNA ChIP) (UniProt P26368)", "experiment": "binding assay", "conditions": "HEK 293T transfected, also infected MRC-5, protein in cells"}}, "note": "The exact form of at least one protein or probe is not confirmed. Where cells or extracts were used, other partners may take part."}
{"sequence": "CACGCCUGUGAAACCGUACUAAGUCUCCCGUGUCUUCUUAUCACCAUCAG [MIE intron 4 RNA in cells (pSVH)]", "values": [{"measurement": "binding result", "setting": "[1]", "value": "binds"}, {"measurement": "binding result", "setting": "[2]", "value": "binds"}]}
